Compound potency records, mixed from different reports. Data source: NIAID ChemDB in PubChem.

Common to all: growth or infection tests; agent: Aspergillus fumigatus; measure: MIC

Blank or dashed fields: not listed here.

compound,strain or isolate,method,value
Cc1ccc2oc(=O)c3c(c2c1)OC(N)=C(C#N)C3c1cc2ccccc2nc1Oc1ccc(Cl)cc1,MTCC 3008,,500 µg/mL
CCCCCOc1ccc(-c2cc(-c3ccc(C(=O)N[C@H]4C[C@@H](O)[C@@H](O)NC(=O)[C@@H]5[C@@H](O)[C@@H](C)CN5C(=O)[C@H]([C@H](O)CC(N)=O)NC(=O)[C@H]([C@H](O)[C@@H](O)c5ccc(O)c(OS(=O)(=O)O)c5)NC(=O)[C@@H]5C[C@@H](O)CN5C(=O)[C@H]([C@@H](C)O)NC4=O)cc3)no2)cc1,IFM41209,,0.0078 µg/mL
Cc1ccc(Oc2nc3ccc(C)cc3cc2C2C(C#N)=C(N)OC3=C2C(=O)CCC3)cc1,MTCC 3008,,500 µg/mL
CCCCCCCCOc1ccc(-c2ccc(C(=O)NC3CC(NCCN)CNC(=O)[C@@H]4[C@@H](O)[C@@H](C)CN4C(=O)[C@@H](CO)NC(=O)[C@H]([C@H](O)Cc4ccccc4)NC(=O)[C@@H]4C[C@@H](O)CN4C(=O)[C@H]([C@@H](C)O)NC3=O)cc2)cc1,50 isolates,,0.0625–0.5 µg/mL
Cc1nccn1CC(=O)CN1CCN(C(c2ccccc2)c2ccc(Cl)cc2)CC1,ATCC 96918,broth dilution,50 µg/mL
Cc1ccc(Sc2nc3ccccc3cc2C2C(C#N)=C(N)Oc3c2c(=O)oc2ccc(C)cc32)cc1,MTCC 3008,broth dilution,>1000 µg/mL
CN(C/C=C/C#CC(C)(C)C)Cc1cccc2ccccc12,14 isolates,,0.03–1 µg/mL
CCN1CCN(c2ccccc2)CC1,ITCC 4517,,62.5 µg/mL
CCCCCCCCNC1CCc2cccc(OC)c2C1,,,64 µM
Cc1nn(-c2ccccc2)c2c1C(c1c(O)c3ccccc3oc1=O)c1c(oc3ccccc3c1=O)O2,,agar diffusion / agar,50 µg/mL
N#CC(C#N)C(CC(=O)c1ccccc1)c1cc2ccccc2nc1Cl,ATCC 26934,,>50 µg/mL
C=CCc1ccc(O)c(OC)c1,MTCC 2550,broth dilution,320 µg/mL
COc1ccc2nc(Sc3ccc(Cl)cc3)c(C3C(C#N)=C(N)Oc4c3c(=O)oc3ccc(C)cc43)cc2c1,MTCC 3008,broth dilution,500 µg/mL
COc1cccc(CN=C=S)c1,,broth dilution,30 µg/mL
O=C(/C=C/c1ccccc1[N+](=O)[O-])c1ccccc1,ATCC 26934,,>50 µg/mL
Cc1nn(-c2ccccc2)c(Oc2ccc(Cl)cc2)c1C1C(C#N)=C(N)OC2=C1C(=O)CCC2,MTCC 3008,,250 µg/mL
S=C=NCc1ccccc1,,broth dilution,9 µg/mL
CCOC(=O)C1=C(N)N(c2nc(-c3ccccc3O)cs2)C2=C(C(=O)CCC2)C1c1cc2cc(C)ccc2nc1F,MTCC 3008,broth dilution,>1000 µg/mL
COc1ccc2nc(Oc3ccccc3)c(C3C(C#N)=C(N)Oc4c3c(=O)oc3ccc(C)cc43)cc2c1,MTCC 3008,,500 µg/mL
COc1ccc(Oc2nc3ccc(C)cc3cc2C2C(C#N)=C(N)OC3=C2C(=O)CC(C)(C)C3)cc1,MTCC 3008,,250 µg/mL
C(=C\c1ccccc1)/CN(Cc1cccc2ccccc12)n1ccnc1,,,>200 µM
Cc1ccc2oc(=O)c3c(c2c1)OC(N)=C(C#N)C3c1cc2ccccc2nc1Sc1ccccc1,MTCC 3008,broth dilution,1000 µg/mL
CCCCCCCCCNC1CCc2cc(O)ccc2C1,,,64 µM
COc1ccc2nc(Sc3ccccc3)c(C3C(C#N)=C(N)Oc4c3c(=O)oc3ccccc43)cc2c1,MTCC 3008,broth dilution,>1000 µg/mL
CC(=O)Oc1ccc2oc(=O)ccc2c1,ATCC 16913,,500 µg/mL
C[C@@H]1[C@H](O)[C@@H](C)/C=C/C=C/CC/C=C/C=C/C=C/C=C/[C@H](O[C@@H]2O[C@H](C)[C@@H](O)[C@H](N)[C@@H]2O)C[C@@H]2O[C@](O)(C[C@@H](O)[C@H](O)CC[C@@H](O)C[C@@H](O)C[C@@H](O)CC(=O)O[C@H]1C)C[C@H](O)[C@H]2C(=O)O,MTCC 3008,,100 µg/mL
COc1ccc(C(=O)/C=C/c2cc3ccccc3nc2Cl)c(OC)c1,ATCC 26934,,>50 µg/mL
Cc1nn(-c2ccccc2)c(Oc2ccccc2)c1C1C(C#N)=C(N)OC2=C1C(=O)CCC2,MTCC 3008,,>1000 µg/mL
O=C1C(=O)c2ccccc2-c2ccccc21,KACC 40080,visual reading,40 µg/mL
COc1ccc2nc(F)c(C3C(C#N)=C(N)N(c4nc(-c5ccc(Cl)cc5)cs4)C4=C3C(=O)CCC4)cc2c1,MTCC 3008,broth dilution,1000 µg/mL
O=c1ccc2cc([N+](=O)[O-])ccc2o1,ATCC 16913,,500 µg/mL
O=C(Cn1nnc2ccccc21)N1CCN(C(c2ccccc2)c2ccc(Cl)cc2)CC1,ATCC 96918,broth dilution,>400 µg/mL
CCOC(=O)C1=C(N)N(c2nc(-c3ccccc3)cs2)C2=C(C(=O)CCC2)C1c1cc2cc(OC)ccc2nc1F,MTCC 3008,broth dilution,100 µg/mL
Cc1ccc2oc(=O)ccc2c1,ATCC 16913,,1000 µg/mL
CCN1CCN(Cc2ccccc2)CC1,ITCC 4517,,500 µg/mL
Cc1ccc2nc(F)c(C3C(C#N)=C(N)N(c4nc(-c5ccc(O)cc5)cs4)C4=C3C(=O)CCC4)cc2c1,MTCC 3008,broth dilution,>1000 µg/mL
CCCCCOc1ccc(-c2cc(-c3ccc(C(=O)N[C@H]4C[C@@H](O)[C@@H](O)NC(=O)[C@@H]5[C@@H](O)[C@@H](C)CN5C(=O)[C@H]([C@H](O)CC(N)=O)NC(=O)[C@H]([C@H](O)[C@@H](O)c5ccc(O)c(OS(=O)(=O)O)c5)NC(=O)[C@@H]5C[C@@H](O)CN5C(=O)[C@H]([C@@H](C)O)NC4=O)cc3)no2)cc1,ATCC 204305,XTT,>128 µg/mL
O=c1ccc2cc(O)c(O)cc2o1,ATCC 16913,,1000 µg/mL
CCCCCCCCCNC1CCc2cc(OC)ccc2C1,,,8 µM
N#CC(C#N)C(CC(=O)c1ccccc1)c1ccc(Cl)cc1Cl,ATCC 26934,,>50 µg/mL
Cc1nn(-c2ccccc2)c(Oc2ccccc2)c1C1C(C#N)=C(N)OC2=C1C(=O)CC(C)(C)C2,MTCC 3008,,1000 µg/mL
COc1ccc(Oc2nc3ccc(C)cc3cc2C2C(C#N)=C(N)OC3=C2C(=O)CCC3)cc1,MTCC 3008,,500 µg/mL
O=c1oc2ccccc2c(O)c1C(c1c(O)c2ccccc2oc1=O)c1coc2ccccc2c1=O,,agar diffusion / agar,25 µg/mL
C[C@@H]1[C@H](O)[C@@H](C)/C=C/C=C/CC/C=C/C=C/C=C/C=C/[C@H](O[C@@H]2O[C@H](C)[C@@H](O)[C@H](N)[C@@H]2O)C[C@@H]2O[C@](O)(C[C@@H](O)[C@H](O)CC[C@@H](O)C[C@@H](O)C[C@@H](O)CC(=O)O[C@H]1C)C[C@H](O)[C@H]2C(=O)O,MTCC 3008,,100 µg/mL
COc1ccc(C(=O)/C=C/c2ccc3ccccc3c2)c(OC)c1,ATCC 26934,,>50 µg/mL
CNc1ccc(C(=O)CC(O)CC[C@H](C)[C@H]2OC(=O)C[C@H](O)CC(=O)CC(O)CC(O)CC(O)CC(O)C[C@]3(O)C[C@H](O)[C@@H](C(=O)NCCN(C)C)[C@H](C[C@@H](O[C@@H]4OC(C)[C@@H](O)[C@H](NC(=O)CN(C)C)[C@@H]4O)/C=C/C=C/C=C/C=C/C=C/C=C/C=C/[C@@H]2C)O3)cc1.O=C1O[C@H]([C@@H](O)CO)C(O)=C1O.O=C1O[C@H]([C@@H](O)CO)C(O)=C1O,MF-13,broth dilution,0.5 µg/mL
COc1cccc(C=O)c1O,AF293,agar,500 µM
CN(C/C=C/C#CC(C)(C)C)Cc1cccc2ccccc12,NFI 0159,,2 µg/mL
Cc1cc2c(c(=O)o1)C(c1cc3ccccc3nc1Sc1ccccc1)C(C#N)=C(N)O2,MTCC 3008,broth dilution,1000 µg/mL
Cc1ccc2nc(Oc3ccccc3)c(C3C(C#N)=C(N)OC4=C3C(=O)CCC4)cc2c1,MTCC 3008,,>1000 µg/mL
O=C(/C=C/c1ccccc1)c1ccccc1,ATCC 26934,,>50 µg/mL
COc1ccc2nc(Sc3ccccc3)c(C3C(C#N)=C(N)Oc4c3c(=O)oc3ccc(C)cc43)cc2c1,MTCC 3008,broth dilution,1000 µg/mL
N#CC1=C(N)N(c2nc(-c3ccccc3)cs2)C2=C(C(=O)CCC2)C1c1cc2ccccc2nc1F,MTCC 3008,broth dilution,>1000 µg/mL
O=c1ccc2ccc(Cl)cc2o1,ATCC 16913,,1000 µg/mL
Cc1nn(-c2ccccc2)c(Oc2ccc(Cl)cc2)c1C1C(C#N)=C(N)OC2=C1C(=O)CC(C)(C)C2,MTCC 3008,,500 µg/mL
Cc1ccc2nc(Sc3ccc(Cl)cc3)c(C3C(C#N)=C(N)Oc4c3c(=O)oc3ccc(C)cc43)cc2c1,MTCC 3008,broth dilution,1000 µg/mL
C(=C\c1ccccc1)/CN(Cc1cccc2ccccc12)n1cnnc1,,,>200 µM
N#CSCc1ccccc1,,broth dilution,150 µg/mL
COc1ccc2nc(Oc3ccc(C)cc3)c(C3C(C#N)=C(N)Oc4c3c(=O)oc3ccc(C)cc43)cc2c1,MTCC 3008,,500 µg/mL
N#CC1=C(N)Oc2c(c(=O)oc3ccccc23)C1c1cc2ccccc2nc1Sc1ccccc1,MTCC 3008,broth dilution,1000 µg/mL
CCOC(=O)C1=C(N)N(c2nc(-c3ccc(Cl)cc3)cs2)C2=C(C(=O)CCC2)C1c1cc2cc(Cl)ccc2nc1F,MTCC 3008,broth dilution,1000 µg/mL
COc1ccccc1CN=C=S,,broth dilution,70 µg/mL
OC(CN1CCN(C(c2ccccc2)c2ccc(Cl)cc2)CC1)Cn1cncn1,ATCC 96918,broth dilution,200 µg/mL
Cc1ccc(Oc2nc3ccccc3cc2C2C(C#N)=C(N)Oc3c2c(=O)oc2ccc(C)cc32)cc1,MTCC 3008,,500 µg/mL
COc1ccc(OC)c(C=O)c1,AF293,agar,1500 µM
C[C@H]1[C@H](O)[C@@H](C)/C=C/C=C/C=C/C=C/C=C/C=C/C=C/[C@H](O[C@@H]2O[C@H](C)[C@@H](O)[C@H](N)[C@@H]2O)C[C@@H]2O[C@](O)(C[C@@H](O)C[C@@H](O)CC[C@H](O)[C@@H](O)C[C@@H](O)CC(=O)O[C@H]1C)C[C@H](O)[C@H]2C(=O)O,ITCC 1634,broth dilution,1.95 µg/mL
Cc1ccc(Sc2nc3ccc(C)cc3cc2C2C(C#N)=C(N)Oc3c2c(=O)oc2ccc(C)cc32)cc1,MTCC 3008,broth dilution,>1000 µg/mL
OC(Cn1cncn1)(Cn1cncn1)c1ccc(F)cc1F,NFI 4001,,>128 µg/mL
N#Cc1ccc2oc(=O)ccc2c1,ATCC 16913,,1000 µg/mL
CCCCCCCCCCNC1CCc2cccc(O)c2C1,,,32 µM
Cc1ccc(Oc2nc3ccccc3cc2C2C(C#N)=C(N)Oc3c2c(=O)oc2ccccc32)cc1,MTCC 3008,,500 µg/mL
Cc1ccc(Oc2c(C3C(C#N)=C(N)OC4=C3C(=O)CC(C)(C)C4)c(C)nn2-c2ccc(C)cc2)cc1,MTCC 3008,,>1000 µg/mL

Repeating the final 5 entries:

compound,strain or isolate,method,value
OC(Cn1cncn1)(Cn1cncn1)c1ccc(F)cc1F,NFI 4001,,>128 µg/mL
N#Cc1ccc2oc(=O)ccc2c1,ATCC 16913,,1000 µg/mL
CCCCCCCCCCNC1CCc2cccc(O)c2C1,,,32 µM
Cc1ccc(Oc2nc3ccccc3cc2C2C(C#N)=C(N)Oc3c2c(=O)oc2ccccc32)cc1,MTCC 3008,,500 µg/mL
Cc1ccc(Oc2c(C3C(C#N)=C(N)OC4=C3C(=O)CC(C)(C)C4)c(C)nn2-c2ccc(C)cc2)cc1,MTCC 3008,,>1000 µg/mL

Lines come from different laboratories, so protocols vary. a–b is a range or a potency band.